Measurements reported in PubChem BioAssay AID624099 (ICCB-Longwood, 2012)
This is an unselected part of about 21,000 reagents. 497 of them (2.4%) were called active. 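Higher z means weaker E2 silencing; only reporter increases were scored, and knock-downs that hurt cell survival may mask genuine repressor factors.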

Purpose: 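Human genes that papillomavirus E2 requires to repress the HPV18 LCR promoter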 (primary screen)
Cells: human C33A cervical carcinoma cells (HPV-negative) stably expressing BPV1 E2 and an HPV18 LCR luciferase reporter
Reagents: siRNA pool against human genes, 40 nM
Duration: 72 h
Measured: 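Per-well luciferase luminescence, z-scored on each plate against the plate mean and SD with control wells left out, then averaged across three replicate plates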
Scale: mean z-score and z-score: higher = stronger reporter signal, weaker E2 silencing
Rule for the call: 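Hit if mean z-score reaches 2 and two or more of three replicate z-scores also reach 2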

| gene | mean z-score | z-score, replicate A | z-score, replicate B | z-score, replicate C | activity call |
| --- | --- | --- | --- | --- | --- |
| WFDC13 (WAP four-disulfide core domain 13) | 0.68 | 0.55 | 0.61 | 0.88 | inactive |
| ATP1B2 (ATPase Na+/K+ transporting subunit beta 2) | 0.35 | 0.43 | 0.45 | 0.18 | inactive |
| MYCN (MYCN proto-oncogene, bHLH transcription factor) | -1.97 | -2.09 | -1.84 | -2 | inactive |
| MTCH2 | 0.43 | 0.35 | 0.52 | 0.44 | inactive |
| RPL22L1 (ribosomal protein L22 like 1) | -4.95 | -5.08 | -5.02 | -4.75 | inactive |
| SLIRP (SRA stem-loop interacting RNA binding protein) | -1.42 | -1.62 | -1.11 | -1.52 | inactive |
| SYT9 (synaptotagmin 9) | 1.05 | 0.74 | 0.94 | 1.46 | inactive |
| COX11 (cytochrome c oxidase copper chaperone COX11) | 0.92 | 0.97 | 0.79 | 0.99 | inactive |
| IDO1 (indoleamine 2,3-dioxygenase 1) | 0.38 | 0.48 | 0.22 | 0.45 | inactive |
| LTN1 (listerin E3 ubiquitin protein ligase 1) | -0.36 | -0.59 | -0.25 | -0.23 | inactive |
| CNTNAP2 (contactin associated protein 2) | 0.57 | 0.55 | 0.6 | 0.55 | inactive |
| MED1 (mediator complex subunit 1) | -0.58 | -0.55 | -0.48 | -0.69 | inactive |
| API5 (apoptosis inhibitor 5) | 0.15 | 0.62 | 0.01 | -0.18 | inactive |
| CAPRIN1 (cell cycle associated protein 1) | 1.5 | 1.55 | 1.45 | 1.51 | inactive |
| PRKDC (protein kinase, DNA-activated, catalytic subunit) | 0.29 | 0.05 | 0.44 | 0.38 | inactive |
| DSEL (dermatan sulfate epimerase like) | -0.13 | -0.2 | -0.17 | -0.02 | inactive |
| ZNF431 (zinc finger protein 431) | 0.23 | 0.28 | 0.1 | 0.29 | inactive |
| PLAC8 (placenta associated 8) | -0.48 | -0.11 | -0.7 | -0.65 | inactive |
| TTYH2 (tweety family member 2) | 1.49 | 1.63 | 1.79 | 1.05 | inactive |
| AGRN (agrin) | 1 | 0.79 | 1.42 | 0.81 | inactive |
| FIP1L1 (factor interacting with PAPOLA and CPSF1) | 0.2 | 0.13 | -0.05 | 0.51 | inactive |
| PIGF (phosphatidylinositol glycan anchor biosynthesis class F) | 0.18 | 0.1 | 0.28 | 0.17 | inactive |
| ZBTB1 (zinc finger and BTB domain containing 1) | -0.96 | -0.86 | -0.99 | -1.02 | inactive |
| LDAF1 (lipid droplet assembly factor 1) | -1.42 | -1.45 | -1.1 | -1.7 | inactive |
| NUP160 (nucleoporin 160) | -1.13 | -1.16 | -1.34 | -0.88 | inactive |
| C11orf24 (chromosome 11 open reading frame 24) | 0.78 | 0.66 | 1.53 | 0.14 | inactive |
| THNSL2 (threonine synthase like 2) | -1.03 | -1.3 | -1.07 | -0.71 | inactive |
| MYOF (myoferlin) | 1.95 | 1.9 | 1.58 | 2.36 | inactive |
| MATK (megakaryocyte-associated tyrosine kinase) | 0.32 | 0.5 | 0.09 | 0.38 | inactive |
| TRIM64FP (tripartite motif containing 64F, pseudogene) | -0.15 | -0.41 | 0.1 | -0.13 | inactive |
| TMEM80 (transmembrane protein 80) | -1.43 | -0.86 | -2.06 | -1.38 | inactive |
| CERK (ceramide kinase) | 0.46 | 0.89 | 0.23 | 0.27 | inactive |
| RAB5A (RAB5A, member RAS oncogene family) | -0.55 | -0.63 | -0.58 | -0.45 | inactive |
| MANBAL (mannosidase beta like) | 0.41 | 0.59 | 0.31 | 0.31 | inactive |
| NUP37 (nucleoporin 37) | 0.6 | 0.65 | 0.06 | 1.08 | inactive |
| POLR2J (RNA polymerase II subunit J) | -0.42 | -0.29 | -0.17 | -0.79 | inactive |
| MRPS34 (mitochondrial ribosomal protein S34) | 0.5 | 0.35 | 0.48 | 0.66 | inactive |
| CEACAM8 (CEA cell adhesion molecule 8) | 0.56 | 0.84 | 0.02 | 0.84 | inactive |
| TBC1D3B (TBC1 domain family member 3B) | 2.53 | 2.61 | 2.26 | 2.72 | active |

Entries listed so far whose target name starts with S or s (2):
| gene | mean z-score | z-score, replicate A | z-score, replicate B | z-score, replicate C | activity call |
| --- | --- | --- | --- | --- | --- |
| SLIRP (SRA stem-loop interacting RNA binding protein) | -1.42 | -1.62 | -1.11 | -1.52 | inactive |
| SYT9 (synaptotagmin 9) | 1.05 | 0.74 | 0.94 | 1.46 | inactive |
